The experiment deals with anthrax LF (Bacillus anthracis, UniProt P15917). The experiment in a line: biochemical. To be noted: read-out: Percent Inhibition with 33 μM of drug, LF.

Protein sequences, listed by entry. Tags and fused reporters are not part of them. Residues count along the entry.
UniProt P15917, 34-809 limits assumed: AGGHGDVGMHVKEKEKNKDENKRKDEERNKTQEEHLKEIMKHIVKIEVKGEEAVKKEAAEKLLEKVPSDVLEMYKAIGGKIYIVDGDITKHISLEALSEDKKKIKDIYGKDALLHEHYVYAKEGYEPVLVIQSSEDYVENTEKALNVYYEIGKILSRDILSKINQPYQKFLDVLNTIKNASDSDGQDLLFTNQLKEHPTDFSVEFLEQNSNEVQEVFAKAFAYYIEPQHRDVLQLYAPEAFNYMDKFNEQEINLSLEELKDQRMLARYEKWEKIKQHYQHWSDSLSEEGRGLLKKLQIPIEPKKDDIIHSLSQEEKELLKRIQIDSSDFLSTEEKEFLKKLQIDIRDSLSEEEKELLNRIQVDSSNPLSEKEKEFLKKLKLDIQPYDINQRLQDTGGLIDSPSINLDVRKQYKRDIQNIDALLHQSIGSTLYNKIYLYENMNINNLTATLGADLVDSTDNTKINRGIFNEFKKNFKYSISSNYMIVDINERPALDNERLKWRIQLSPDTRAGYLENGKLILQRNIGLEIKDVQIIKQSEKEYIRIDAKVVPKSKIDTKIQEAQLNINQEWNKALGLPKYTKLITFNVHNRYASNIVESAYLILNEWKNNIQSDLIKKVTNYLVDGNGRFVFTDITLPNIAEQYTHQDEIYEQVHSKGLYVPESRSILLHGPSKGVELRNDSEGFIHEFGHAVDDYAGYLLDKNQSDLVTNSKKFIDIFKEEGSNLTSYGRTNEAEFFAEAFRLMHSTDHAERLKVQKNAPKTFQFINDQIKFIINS

For the compound `O=C(O)CCc1cc(I)c(Oc2ccc(O)c(I)c2)c(I)c1` [Thyropropic acid], the inhibition at 33 µM stood at 77 ± 1.07%.

For the origin of these results see publication PMC5050486 (Scientific Reports, 2016).
